What was measured:
[1] = tested on: sg-DVs-R2A GND (DENV RNA translation); conditions: Huh7.5, 4 hpe; cherylline 50 μM, NITD008 5 μM
[2] = tested on: hygromycin-resistant replicon (DENV subgenomes); assay: Escape mutant selection with hygromycin-resistant DENV replicon; conditions: continuous treatment of 30 days
[3] = tested on: sg-DVs-R2A WT (viral RNA replication); conditions: Huh7.5, 48 to 72 hpe; cherylline 50 μM, NITD008 5 μM

| SMILES | luminescence of sg-DVs-R2A GND (translation) [1] | generation of resistant DENV subgenomes [2] | reduction of relative light units [RLU], sg-DVs-R2A WT [3] [log10] |
| --- | --- | --- | --- |
| COc1cc2c(cc1O)CN(C)C[C@H]2c1ccc(O)cc1 [Cherylline, cherylline] | no effect on the luminescence | cells containing resistant DENV subgenomes were not generated | 3 |
| C#C[C@@]1(O)[C@H](O)[C@@H](CO)O[C@H]1n1ccc2c(N)ncnc21 [NITD008, reference compound] | no effect on the luminescence | – | 3 |

From publication PMC8370201, “Amaryllidaceae Alkaloid Cherylline Inhibits the Replication of Dengue and Zika Viruses” (Antimicrobial Agents and Chemotherapy, 2021)
